Test results: patent US20110064668A1, “J-superfamily conotoxin peptides” (published 2011)

Legend:
Experiment in all cases: cell-based or functional assay
Kv1.6 channel = molecular target: Kv1.6 channel
[1] = molecular target: α1β1εδ subtype of mouse muscle nAChR (mouse), P04756
[2] = molecular target: α3β4 subtype of rat neuronal nAChR (rat), P04757

B1: pl14a[K18A] (peptide)
peptide: FPRPRICNLACRAGIGHAYPFCHCR
modifications: not checked
Kv1.6 channel
  IC50: 7.88 µM
[1]
  IC50: 796 nM
[2]
  IC50: 11.5 µM
